Patent publication US20230303666A1, “Cell-free antibody engineering platform and neutralizing antibodies for sars-cov-2” (published 2023)

Target: SARS-CoV-2 S deleted of the C-terminal 27 a.a. and fused to the NRVRQGYS sequence of HIV-1 (pCMV-SAR (SARS-CoV-2) (UniProt P0DTC2))
Test: cell-based or functional assay

In the case of VHH72, the Pseudovirus neutralization % inhibition, 5 nM VHH, replicate 1 is reported as 6.09%, the Pseudovirus neutralization % inhibition, 5 nM VHH, replicate 2 is reported as 2.67% and the Pseudovirus neutralization % inhibition, 50 nM VHH, replicate 1 is reported as 4.12%. The Pseudovirus neutralization % inhibition, 50 nM VHH, replicate 2 was 3.97%, the Pseudovirus neutralization % inhibition, 500 nM VHH, replicate 1 was 81.4% and the Pseudovirus neutralization % inhibition, 500 nM VHH, replicate 2 was 49.6%.
